In article PMC6600181, “Reversal of MK-801-Induced Disruptions in Social Interactions and Working Memory with Simultaneous Administration of LY487379 and VU152100 in Mice” (International Journal of Molecular Sciences, 2019):

Legend:
[1] = system: MK-801-treated mice; assay: Novel object recognition test (MK-801-induced disruptions); parameters: species or system mice (male CD1); details: mouse, in vivo
Description: (§1) Schedules of administration are presented graphically in Figure 1. […] Different vehicles were used throughout the study: (1) 0.9% NaCl, (2) 10% Tween 80 or (3) 10% Tween 80 containing 2% DMSO. Vehicles were administered to all animals (e.g., control mice, MK-801-treated mice) in the same schedule as drugs were administered to the drug-treated appropriate groups of mice.
(§2) Male CD1 mice (Charles River, Germany) weighing 20–25 g at the time of arrival were used in behavioural experiments. Animals were kept in standard laboratory cages T3 (265 × 420 × 180 mm, with an area of 825 cm^2), grouped at 10 mice per cage. Animals were kept under standard laboratory conditions (12:12 light:dark cycle, 21–22 °C) with free access to food and water. Animal welfare has been regularly controlled by a veterinarian and animal welfare committee. After 3–4 weeks of acclimatization and handling, the experiments began. Experimental groups consisted of 8 to 10 animals, depending on the procedure. […]
This procedure was adapted from Nilsson et al. and performed as described in a variety of our previous papers. […] Time spent exploring (i.e., sniffing or touching) the familiar (Tfamiliar) and novel (Tnovel) objects was measured by a trained observer, and the recognition index [%] was calculated for each mouse [(Tnovel – Tfamiliar)/(Tfamiliar + Tnovel)] * 100.

[2] = system: MK-801-treated mice; assay: Social interaction test (MK-801-induced disruptions); parameters: species or system mice (male CD1); details: mouse, in vivo
Description: as §1
as §2, with “procedure. Drugs were administered intraperitoneally (i.p.) at a volume of 10 mL/kg.” for “procedure.”
This procedure was adapted from de Moura Linck et al. and performed as described in our previous papers. […] Social interactions between the two mice were determined based on the total time spent participating in social behaviours, such as sniffing, genital investigation and chasing.

Question: What does the source list for `CCN(Cc1ccncc1)C(=O)C(CO)c1ccccc1` (centres unmarked) [Tropicamide]?
Answer: blockade of the effect of combined LY487379 and VU152100 in novel object recognition [1]: blocked; blockade of the effect of combined LY487379 and VU152100 in social interaction [2]: blocked
